Tested on: microbial populations derived from the Cook Inlet subsurface waters
Experiment: microbial removal of individual volatile fatty acids (VFAs)
Assay type: cell-based
Conditions: microbial populations from Cook Inlet wells, within a few months

| Structure (SMILES) | conversion/degradation of VFA to CH4 |
| --- | --- |
| CCC(=O)O [propionate] | not degraded in any of the samples |
| CC(=O)O [acetate] | stoichiometric conversion |

Reference: patent US20110308790A1, “IN SITU METHANOGENESIS MODELING AND RISK ANALYSIS” (CONOCOPHILLIPS COMPANY, priority 2010, published 2011)
